A mixed list of measured activities; the numbers were collected in NIAID ChemDB.

Shared fields: enzyme or target tests; organism: Hepatitis B virus; protein: DNA polymerase; measure: IC50

Lines come from different laboratories, so protocols vary.

compound	strain	result
Cc1ccc(C(=O)NCCCn2ccnc2)c(Nc2ccc3cn[nH]c3c2)n1	-	~0.01 µg/mL
Cc1cn([C@H]2O[C@@H](CO)[C@H](O)[C@H]2F)c(=O)[nH]c1=O	-	0.1 µM
CON1C(Nc2ccc3cn[nH]c3c2)=NC(NC(C)C)=NC1NC(C)C	-	0.1–1 µg/mL
Cc1ccc(C(=O)NCCO)c(Nc2ccc3cn[nH]c3c2)n1	-	~0.01 µg/mL
NC1C=CN([C@@H]2O[C@H](COP(=O)(O)OP(=O)(O)OP(=O)(O)O)[C@@H](O)[C@@H]2O)C(=O)N1	-	1.1 µM
COc1nc(Nc2ccc3[nH]ncc3c2)nc(N2CCC(O)CC2)n1	-	>1 µg/mL
Nc1nc2c(ncn2CC[C@@H](CO)COP(=O)(O)OP(=O)(O)OP(=O)(O)O)c(=O)[nH]1	-	11 µM
CCN(CC)CCNC(=O)c1ccc(C)nc1Nc1ccc2cn[nH]c2c1	-	~1 µg/mL
Cc1cn([C@H]2C=C[C@@H](COP(=O)(O)OP(=O)(O)OP(=O)(O)O)O2)c(=O)nc1N	-	8 µM
COc1nc(Nc2ccc3cn[nH]c3c2)nc(NN2CCOCC2)n1	-	0.1–1 µg/mL
Cc1ccc(C(=O)NCc2cccnc2)c(Nc2ccc3[nH]ncc3c2)n1	-	<1 µg/mL
COC(=O)[C@@H]1CCCN1c1nc(Nc2ccc3cn[nH]c3c2)nc(OC)n1	-	0.1–1 µg/mL
C=C1[C@H](COP(=O)(O)OP(=O)(O)OP(=O)(O)O)[C@@H](O)C[C@@H]1n1cnc2c(=O)[nH]c(N)nc21	Polymerase mutant V553I	0.00067 µM
CCOC(=O)N1CCN(c2nc(Nc3ccc4[nH]ncc4c3)nc(OC)n2)CC1	-	>1 µg/mL
Cc1ccc(C(=O)Nc2cccnc2)c(Nc2ccc3cn[nH]c3c2)n1	-	<1 µg/mL

Blank or dashed fields: not listed here. a–b is a range or a potency band. ICn is the concentration giving n% inhibition.